Here are results for two molecules from patent US20250002564A1, “MODIFIED MULTABODY CONSTRUCTS, COMPOSITIONS, AND METHODS” (HOSPITAL FOR SICK CHILDREN, published 2025).

A word on the Kd: it is the constant that tells how readily two partners part at equilibrium.

The target in test [1] is T1, SARS-CoV-2 Spike on wild-type pseudotyped virus (PsV) (SARS-CoV-2, UniProt P0DTC2 14-1273). The experiment in a line: cell-based or functional assay.
Test [2] concerns the target Spike of authentic SARS-CoV-2/SB2-P4-PB virus (SARS-CoV-2, UniProt P0DTC2 14-1273). The experiment in a line: cell-based or functional assay.
Test [3] has as its target T1, SARS-CoV-2 Spike on wild-type …. The test can be described thus: cell-based or functional assay. This is another data set of the same source.
The target in test [4] is T2, SARS-CoV-2 receptor binding domain (RBD), wild type, His-tagged (SARS-CoV-2, UniProt P0DTC2 319-541).
T2 construct: domain: RBD; also called His-tagged RBD; BEI NR52309
The experiment in a line: method and format not given.

The target of test [5] is T2, SARS-CoV-2 receptor binding domain …. The test can be described thus: method and format not given. This is another data set of the same source.

“And” between values parts separate entries of the source, which are not always exact repeats. Equal values may be shown once. Read-outs that look alike come from different tables or passages of the source.

B1: mAb 80 (antibody, V domains shown)
VH: QVQLVQSGAEVKKPGSSVKVSCKASGGTFNRYAFSWVRQAPGQGLEWMGGIIPIFGTANYAQKFQGRVTITADESTSTAYMELSSLRSEDTAVYYCARSTRELPEVVDWYFDLWGRGTLVTVSS
VL: DIVMTQSPDSLAVSLGERATINCKSSQSVLYSSNNKNYLAWYQQKPGQPPKLLIYWASTRESGVPDRFSGSGSGTDFTLTISSLQAEDVAVYYCQQYYSAPLTFGGGTKVEIKR
notes: also called IgG 80; Antibody 80
Take B1: the “IC50 SARS-CoV2 PsV (IgG)” value in test [1] came to 0.1 µg/mL. For the same molecule, the “IC50 SARS-CoV2/SB2-P4-PB (IgG)” value in test [2] came out at 12.7 µg/mL. In test [3], the “Median IC50” value is 0.1 µg/mL and 0.67 nM. This molecule showed a Kd in test [4] of 142 nM.

B2: mAb 298 (antibody, V domains shown)
VH: QVQLVQSGAEVKKPGASVKVSCKASGGTFSTYGISWVRQAPGQGLEWMGWISPNSGGTDLAQKFQGRVTMTRDTSTSTVYMELSSLRSEDTAVYYCASDPRDDIAGGYWGQGTLVTVSS
VL: not shown
notes: also called IgG 298; Antibody 298
With B2, in test [1], the “IC50 SARS-CoV2 PsV (IgG)” value came to 2.8 µg/mL. Moreover, the “IC50 SARS-CoV2/SB2-P4-PB (IgG)” value in test [2] turned out to be 2.2 µg/mL. Besides, in test [3], the “Median IC50” value is 0.28 µg/mL and 1.9 nM. In test [5], this molecule had a Kd of 24 nM.
